Reference: patent publication US6746623B2, “Alkyl glycidyl ether-capped diamine foam controlling agent” (Air Products and Chemicals, Inc., priority 2002, dated 2004)

System: biomass seed from an Easton Pa. wastewater treatment plant
Experiment: Carbonaceous Biological Oxygen Demand (CBOD) biodegradation test at 28 days
Conditions: CBOD/COD x 100, 28 days

Structure (SMILES) | Percent Biodegradation at 28 days, Trial 1 [%] | Percent Biodegradation at 28 days, Trial 2 [%]
CCCCOCC(O)CNCCN (racemic) [EDA/1 BGE] | 0 | 66
CCCCOCC(O)CNCCCCCCN (racemic) [HDA/1 BGE] | 65 | 38
CCCCOCC(O)CN(CCN(CC(O)COCCCC)CC(O)COCCCC)CCN(CC(O)COCCCC)CC(O)COCCCC (centres unmarked) [DETA/5 BGE, reference compound] | 0 | 0
CCCCOCC(O)CNCCN(CC(O)COCCCC)CC(O)COCCCC (centres unmarked) [EDA/3 BGE] | 0 | 50
CCCCOCC(O)CN(CCN(CC(O)COCCCC)CC(O)COCCCC)CC(O)COCCCC (centres unmarked) [EDA/4 BGE] | 0 | 67
CCCCOCC(O)CNCCCCCCN(CC(O)COCCCC)CC(O)COCCCC (centres unmarked) [HDA/3 BGE] | 0 | 100
CCCCOCC(O)CN(CCCCCCN(CC(O)COCCCC)CC(O)COCCCC)CC(O)COCCCC (centres unmarked) [HDA/4 BGE] | 0 | 0
